Anti-infective test results gathered from many reports (values: NIAID ChemDB through PubChem).

Shared fields: growth or infection tests; organism: Influenza A virus; cell line: MDCK; endpoint: EC50

ECn: concentration that inhibits the pathogen or its effect by n%. An empty or dashed field is not shown. a–b is a range or a potency band. Conditions beyond the fields shown may differ between rows.

compound | strain | read by | value
CCCC(CCC)C(NC(C)=O)C1CC(C(=O)O)CC1N=C(N)N | Influenza A/Washington/897/80 (H3N2) |  | <0.01 µM
CCC(C)N1C2CCC23CC[C@H](NC(=O)c2cc(C)ccc2O)CC13 | H1N1 A/WSN/33 (H1N1) | plaque count | >50 µg/mL
CC1=C(C)C2(C)CCCC1C2N |  | plaque count | >25 µM
Cc1ccc(O)c(C(=O)N[C@H]2CCC34CCC3N(C(C)C)C4C2)c1 | H1N1 A/WSN/33 (H1N1) | plaque count | >50 µg/mL
O=c1[nH]cnc2c1ncn2[C@@H]1O[C@H](CO)[C@@H](O)[C@H]1F | A/Sweden | plaque count | >100 µM
C/C(=C\CCC(C)[C@H]1CC[C@@]2(C)C3=C(CC[C@]12C)[C@@]1(C)CC[C@H](O)C(C)(C)C1CC3=O)CO |  |  | 220 µM
CCC | CHILE/1/83 (H1) |  | >500 µM
Nc1nc2c(=O)[nH]c(Cl)nc2n1[C@@H]1O[C@H](CO)[C@@H](O)[C@H]1F | A/Sweden | plaque count | 16 µM
Cc1ccc(O)c(C(=O)N[C@H]2CCC34CCC3N(Cc3ccccc3)C4C2)c1 | H1N1 A/WSN/33 (H1N1) | plaque count | >50 µg/mL
Nc1nc2c(=O)[nH]cnc2n1[C@@H]1O[C@H](CO)[C@@H](O)[C@H]1F | A/Sweden | plaque count | >100 µM
CCCCCCCCCCCCCCCCO[C@H]1N([C@H]2C[C@H](N=[N+]=[N-])[C@@H](CO)O2)C(=O)NC(=O)[C@]1(C)Br | B/Singapore/222/79 | cytopathic effect | >500 µg/mL
CC=NC(=N)c1nc(-c2cccc(OC)c2)n(C/C=C/c2ccccc2)n1 | Ishikawa | cytopathic effect | >100 µg/mL
CCC(CC)O[C@@H]1C=C(C(=O)O)C[C@H](N)[C@H]1NC(C)=O | Influenza A/Shandong/09/03 (H3N2) | cytopathic effect | 0.012 µM
C=C(N=CC)c1nc(-c2ccc(OC)cc2)n(C2O[C@H](CO)[C@@H](O)[C@H](O)[C@H]2O)n1 | Ishikawa | cytopathic effect | >200 µg/mL
Cc1cc(C)cc(C(=S)NC[C@@]2(C)C[C@@H](O)CC(C)(C)C2)c1 | H1N1 A/WSN/33 | cytopathic effect | >10 µg/mL
Cc1ccc(O)c(C(=O)N[C@H]2CCC34CCC3N(C)C4C2)c1 | H1N1 A/WSN/33 (H1N1) | plaque count | >50 µg/mL
CC=NC(=N)c1nc(-c2cccc(C)c2)n(C/C=C/c2ccccc2)n1 | Ishikawa | cytopathic effect | >20 µg/mL
Nc1nc2c(ncn2[C@@H]2O[C@H](CO)[C@@H](O)[C@H]2F)c(=O)[nH]1 | A/Sweden | plaque count | 18.02 µM
CCC(CC)(CO)CNc1cc(Cl)nc(N)n1 | H1N1 A/PR/8/34 | plaque count | 190 µM
COS(=O)(=O)O.N=C(N)c1ccc2cc(OC(=O)c3ccc(N=C(N)N)cc3)ccc2c1 | Influenza A/Ishikawa/7/82 (H3N2) | cytopathic effect | 0.44 µg/mL
N#CNc1nncs1 | A/HONG KONG/8/68 | plaque count | 1.16 µg/mL
CC1=C(C)C2(C)CC[C@@H](C(C)C)C1C2N |  | plaque count | >20 µM
Cc1cc(NCC2(CO)CCC2)nc(N)n1 | H1N1 A/PR/8/34 | plaque count | >140 µM
CCC(CC)O[C@@H]1C=C(C(=O)O)C[C@H](N)[C@H]1NC(C)=O | H1N1 isolate C31C | plaque count | ≤0.03 µg/mL
Nc1nc(Cl)cc(NCC2(CO)CC(OCc3ccccc3)C2)n1 | H1N1 A/PR/8/34 | plaque count | 13–20 µM
C[C@H]1CC2CCCC1C2N |  | plaque count | 4 µM
CCC(CC)[C@H](NC(C)=O)[C@@H]1[C@H](O)[C@@H](C(=O)O)C[C@H]1N=C(N)N | Influenza A/Shandong/09/93 (H3N2) |  | 0.17 µM
CC(=O)N[C@H]1[C@H]([C@H](O)[C@H](O)CO)OC(C(=O)O)=C[C@@H]1N=C(N)N | Influenza A/Johannesburg/33/94 (H3N2) | plaque count | 0.241 µM
Cc1cc(NCCCCCCCCNc2cc(C)nc3cc(N(C)C)ccc23)c2ccc(N(C)C)cc2n1 | Influenza A/Ishikawa/7/82 (H3N2) | cytopathic effect | >500 µg/mL
Cc1cn([C@@H]2O[C@H](CO)[C@@H](O)[C@H]2F)c(=O)[nH]c1=O | A/Sweden | plaque count | >100 µM
CC=NC(=N)c1nc(-c2ccccc2)n(COCCO)n1 | Ishikawa | cytopathic effect | >100 µg/mL
COc1ccccc1C(=S)NC[C@@]1(C)C[C@@H](O)CC(C)(C)C1 | H1N1 A/WSN/33 | cytopathic effect | >10 µg/mL
CC(N)C12CC3CC(CC(C3)C1)C2 | Influenza A H3N2 isolate 241 | ELISA | 14 µg/mL
Cc1ccc(C(=S)NC[C@@]2(C)C[C@@H](O)CC(C)(C)C2)c(C)c1 | H1N1 A/WSN/33 | cytopathic effect | >10 µg/mL
CC=NC(=N)c1nc(-c2ccc(OC)cc2)n(Cc2ccccc2)n1 | Ishikawa | cytopathic effect | >100 µg/mL
Cc1ccc(O)c(C(=O)N[C@@H]2CCC34CCC3N(C)C4C2)c1 | H1N1 A/WSN/33 (H1N1) | plaque count | >50 µg/mL
CC=NC(=N)c1nc(-c2ccc(C)cc2)n(COCCO)n1 | Ishikawa | cytopathic effect | >100 µg/mL
CCC1=C(CC)C2CCCC1C2N |  | plaque count | >100 µM
CCC(C)N1C2CCC23CC[C@@H](NC(=O)c2cc(Cl)ccc2O)CC13 | H1N1 A/WSN/33 (H1N1) | plaque count | >50 µg/mL
CC1(C)C[C@H](O)C[C@](C)(CNC(=S)c2ccccc2)C1 | H1N1 A/WSN/33 | cytopathic effect | >10 µg/mL
Nc1nc(Cl)cc(NCCCO)n1 | H1N1 A/PR/8/34 | plaque count | >490 µM
CC1=C(C)C2C(N)C1[C@H](C(C)C)C[C@@H]2C |  | plaque count | 92 µM
O=C(NCCN1CCC[C@@H]2CCCC[C@H]21)c1cc(Cl)ccc1O | H1N1 A/WSN/33 (H1N1) | plaque count | 1.4 µg/mL
CC1=C(C)C2C(N)C1CC[C@H]2C(C)C |  | plaque count | >20 µM
CCC(CC)[C@H](NC(C)=O)[C@@H]1[C@H](O)[C@@H](C(=O)O)C[C@H]1N=C(N)N | Influenza A/Victoria/3/75 (H3N2) |  | 0.1 µM
CCC(C)N1C2CCC23CC[C@H](NC(=O)c2cc(Cl)ccc2O)CC13 | H1N1 A/WSN/33 (H1N1) | plaque count | >50 µg/mL

Repeating the final 2 entries:

compound,strain,read by,value
CCC(CC)[C@H](NC(C)=O)[C@@H]1[C@H](O)[C@@H](C(=O)O)C[C@H]1N=C(N)N,Influenza A/Victoria/3/75 (H3N2),,0.1 µM
CCC(C)N1C2CCC23CC[C@H](NC(=O)c2cc(Cl)ccc2O)CC13,H1N1 A/WSN/33 (H1N1),plaque count,>50 µg/mL